A mixed list of measured activities; the numbers were collected in NIAID ChemDB.

Common to all: tests in culture; agent: HIV-1; method: MTT; measure: EC50

Rows are shuffled and stem from different studies. ECn: concentration that inhibits the pathogen or its effect by n%. Blank or dashed fields: not listed here.

structure,cell line,mutations,strain,result
Cc1ccnc2c1NC(=O)c1cccnc1N2C1CC1,MT-4,,UG92029 (subtype A),0.05 µg/mL
Cc1cc(C#Cc2cccnc2)cc(C)c1Oc1ccnc(Nc2ccc(C#N)cc2)n1,MT-4,E138K,IIIB,0.022 µM
Cc1cc(C)c(Oc2ncc(NC(=O)C(F)(F)F)c(Nc3ccc(C#N)cc3)n2)c(C)c1,MT-4,,RES056,31.6 µM
CC(=O)c1ccc(CN2CCC(N=C3C=C(Cc4cccc5ccccc45)NS(=O)(=O)N3)CC2)cc1,MT-4,,IIIB,≥33.42 µM
COC(=O)N1CCC2(CC1)CN=C1c3ccc(Br)cc3SC(=N)N1C2,MT-4,,IIIB,4.6 µM
Cn1ncc2c1S(=O)(=O)N(CCc1ccc(Cl)cc1)C(=O)N2CCc1ccc(Cl)cc1,MT-4,,IIIB,>6.7 µM
c1cc(CNCCCN2CCOCC2)ccc1CNCCCN1CCOCC1,MT-4,,,>320.1 µM
Cc1cc(N[C@H](C)c2cccc3ccccc23)c(C(=O)C(Cl)Cl)c(=O)o1,CEM,,IIIB,>10 µM
N#Cc1ccc(Nc2nc(Oc3c(Br)cc(Br)cc3Br)ncc2[N+](=O)[O-])cc1,MT-4,,IIIB,3.89 µM
Cc1ccccc1CN1CCC(N=C2C=C(Cc3cccc4ccccc34)NS(=O)(=O)N2)CC1,MT-4,,IIIB,28.65 µM
N#Cc1ccc(Nc2nc(Oc3c(Cl)cc(Cl)cc3Cl)ncc2[N+](=O)[O-])cc1,MT-4,,IIIB,7.4 µM
O=C(Cc1ccc(CC(=O)NCCN2CCOCC2)cc1)NCCN1CCOCC1,MT-4,,,>299 µM
Cc1cc(S(=O)(=O)Cc2cccc3ccccc23)cc(=O)o1,CEM,,IIIB,>10 µM
C#Cc1ccc(Nc2nccc(Oc3c(C)cc(-c4cn(CC(=O)Nc5ccc(Br)cc5)nn4)cc3C)n2)cc1,MT-4,,IIIB,5.62 µM
Cc1cc(S(=O)(=O)CCc2cccc3ccccc23)c(Br)c(=O)o1,CEM,,IIIB,>10 µM
N=C1Sc2cc(C(F)(F)F)ccc2C2=NCCCN12,MT-4,,IIIB,6.2 µM
Cc1cc(NCCc2cccc3ccccc23)cc(=O)o1,CEM,,IIIB,>10 µM
Nc1ncnc2c1ncn2[C@@H]1O[C@H](CO)[C@H]2CC[C@]21Cl,MT-4,,NL4-3,22.92 µg/mL
Cc1cc(NCc2cccc3ccccc23)cc(=O)o1,CEM,,IIIB,>10 µM
C#Cc1ccc(Nc2nccc(Oc3c(C)cc(-c4cn(Cc5ccc(O)cc5)nn4)cc3C)n2)cc1,MT-4,,IIIB,0.014 µM
Cc1cc(NCc2cccc3ccccc23)c(C(=O)C(Cl)Cl)c(=O)o1,CEM,,IIIB,>2 µM
Cc1cc(C#Cc2ccc(N)cc2)cc(C)c1Oc1ccnc(Nc2ccc(C#N)cc2)n1,MT-4,K103N,IIIB,0.045 µM
CC1(C)CN=C2c3ccccc3SC(=N)N2C1,MT-4,,IIIB,2.3 µM
C#Cc1ccc(Nc2nccc(Oc3c(C)cc(-c4cn(CCc5ccccc5)nn4)cc3C)n2)cc1,MT-4,L100I,IIIB,>5.66 µM
Cc1cc(-c2ccc(C#N)cc2)cc(C)c1Oc1nc(Nc2ccc(C#N)cc2)nc2ccsc12,MT-4,L100I,IIIB,0.0232 µM
CC(=O)c1ccc(C)cc1NC(C(N)=O)c1c(Cl)cccc1Cl,MAGI,RT-V103A,IIIB,0.32 µM
Cn1ncc2c1S(=O)(=O)N(CCc1ccccc1)C(=O)N2CCc1ccccc1Cl,MT-4,,IIIB,>300.1 µM
N#Cc1ccccc1CN1CCC(N=C2C=C(Cc3cccc4ccccc34)NS(=O)(=O)N2)CC1,MT-4,RT-K103N Y181C,RES056,>108 µM
N=C1Sc2cc3ccccc3cc2C2=NCCCN12,MT-4,,IIIB,5.7 µM
CC(C)Nc1cccnc1N1CCN(C(=O)c2cc3cc(NS(C)(=O)=O)ccc3[nH]2)CC1,MT-4,,IIIB,0.66 µM
Cn1ncc2c1S(=O)(=O)N(CCc1ccccc1Br)C(=O)N2CCc1ccccc1Br,MT-4,,IIIB,>231.5 µM
Cc1cc(C#Cc2ccc(C(F)(F)F)cc2)cc(C)c1Oc1ccnc(Nc2ccc(C#N)cc2)n1,MT-4,K103N,IIIB,1.131 µM
N=C1Sc2cc(-c3ccc(OC(F)(F)F)cc3)ccc2C2=NCCCN12,MT-4,,IIIB,1.1 µM
Cc1cc(C#Cc2cccc(N)c2)cc(C)c1Oc1ccnc(NC2CCN(Cc3ccc(C(N)=O)cc3)CC2)n1,MT-4,E138K,IIIB,0.029 µM
c1cc(CN2CCCNCCNCCCNCC2)ccc1CN1CCCNCCNCCCNCC1,MT-4,,Y188L (subtype B),0.001 µg/mL
Cn1ncc2c1S(=O)(=O)N(CCc1ccccc1)C(=O)N2CCc1ccccc1Br,MT-4,,IIIB,>271.1 µM
N#Cc1ccc(Nc2nc(Oc3c(Cl)cc(Cl)cc3Cl)ncc2NC(=O)C(F)(F)F)cc1,MT-4,,RES056,23.65 µM
O=S1(=O)NC(Cc2ccc(Cl)cc2Cl)=CC(=NC2CCN(Cc3ccccc3)CC2)N1,MT-4,RT-K103N Y181C,RES056,>110.8 µM
CC(C)Nc1cccnc1N1CCN(C(=O)c2cc3cc(NS(C)(=O)=O)ccc3[nH]2)CC1,MT-4,RES056,IIIB,>37.02 µM
COc1ccc(-c2ccc3c(c2)SC(=N)N2CCCN=C32)cc1OC,MT-4,,IIIB,1.2 µM
CC1CCCCN1CCCNCc1ccc(CNCCCN2CCOCC2)cc1,MT-4,,,1.242 µM
N#Cc1ccc(Nc2nc(Oc3c(Cl)cccc3Cl)ncc2NC(=O)C(F)(F)F)cc1,MT-4,,RES056,>190 µM
C#Cc1ccc(Nc2nccc(Oc3c(C)cc(-c4cn(Cc5ccc(S(N)(=O)=O)cc5)nn4)cc3C)n2)cc1,MT-4,L100I,IIIB,0.61 µM
c1cc(CNCCCN2CCCCC2)ccc1CCNCCCN1CCCCC1,MT-4,,,0.325 µM
N#Cc1ccc(Nc2nc(Oc3c(Br)cc(Br)cc3Br)ncc2NC(=O)C(F)(F)F)cc1,MT-4,,RES056,2.95 µM
Cc1cc(/C=C/c2ccccc2)cc(C)c1Oc1ccnc(Nc2ccc(C#N)cc2)n1,MT-4,,IIIB,0.026 µM
CC1CCCCN1CCCNC(=O)Cc1ccc(CC(=O)NCCCN2CCCCC2C)cc1,MT-4,,,144 µM
Cc1ccc(CCN2C(=O)N(CCc3ccc(C)cc3)S(=O)(=O)c3c2cnn3C)cc1,MT-4,,IIIB,>170.5 µM
N#Cc1ccc(Nc2nc(Oc3ccc(-c4ccc(C#N)cc4)cc3C(F)(F)F)c3sccc3n2)cc1,MT-4,,IIIB,0.0546 µM
Cc1cn([C@H]2C[C@H](N=[N+]=[N-])[C@@H](COP(=O)(O)O)O2)c(=O)[nH]c1=O,CEM + CEM-SS,,,0.001 µM
N=C1Sc2ccc(C3CC3)cc2C2=NCCCN12,MT-4,,IIIB,3.6 µM
Cc1cc(NCc2ccccc2)cc(=O)o1,CEM,,IIIB,>250 µM
Cc1cc(C#N)cc(C)c1Oc1ncc(N)c(Nc2ccc(C#N)cc2)n1,MT-4,,RES056,0.33 µM
CS(=O)(=O)c1ccc(CN2CCC(N=C3C=C(Cc4cccc5ccccc45)NS(=O)(=O)N3)CC2)cc1,MT-4,,IIIB,118 µM
Cn1ncc2c1S(=O)(=O)N(CCc1ccccc1)C(=O)N2CCc1ccccc1,MT-4,,IIIB,>319.4 µM
Cc1ccnc2c1NC(=O)c1cccnc1N2C1CC1,MT-4,,IIIB,0.118 µM
N#Cc1ccc(Nc2nc(Oc3ccc(-c4ccc(C#N)cc4)cc3[N+](=O)[O-])c3sccc3n2)cc1,MT-4,K103N,IIIB,0.0055 µM
N=C1Sc2cc(-c3cc4ccccc4o3)ccc2C2=NCCCN12,MT-4,,IIIB,1.4 µM
Cc1cn([C@H]2C[C@H](N=[N+]=[N-])[C@@H](CO)O2)c(=O)[nH]c1=O,C8166,,IIIB,0.0218 µM
Cc1cc(C#CC2CC2)cc(C)c1Oc1ccnc(Nc2ccc(C#N)cc2)n1,MT-4,E138K,IIIB,0.046 µM

The first 9 rows once more:

structure,cell line,mutations,strain,result
Cc1ccnc2c1NC(=O)c1cccnc1N2C1CC1,MT-4,,UG92029 (subtype A),0.05 µg/mL
Cc1cc(C#Cc2cccnc2)cc(C)c1Oc1ccnc(Nc2ccc(C#N)cc2)n1,MT-4,E138K,IIIB,0.022 µM
Cc1cc(C)c(Oc2ncc(NC(=O)C(F)(F)F)c(Nc3ccc(C#N)cc3)n2)c(C)c1,MT-4,,RES056,31.6 µM
CC(=O)c1ccc(CN2CCC(N=C3C=C(Cc4cccc5ccccc45)NS(=O)(=O)N3)CC2)cc1,MT-4,,IIIB,≥33.42 µM
COC(=O)N1CCC2(CC1)CN=C1c3ccc(Br)cc3SC(=N)N1C2,MT-4,,IIIB,4.6 µM
Cn1ncc2c1S(=O)(=O)N(CCc1ccc(Cl)cc1)C(=O)N2CCc1ccc(Cl)cc1,MT-4,,IIIB,>6.7 µM
c1cc(CNCCCN2CCOCC2)ccc1CNCCCN1CCOCC1,MT-4,,,>320.1 µM
Cc1cc(N[C@H](C)c2cccc3ccccc23)c(C(=O)C(Cl)Cl)c(=O)o1,CEM,,IIIB,>10 µM
N#Cc1ccc(Nc2nc(Oc3c(Br)cc(Br)cc3Br)ncc2[N+](=O)[O-])cc1,MT-4,,IIIB,3.89 µM